# Molecular target: viral glycoproteins (Nipah G and F) (Nipah virus, UniProt Q9IH63)
# Amino acid sequences for entries named in this document (tags omitted). Residues count along the entry.
# UniProt Q9IH63, 27-109 partner limits assumed: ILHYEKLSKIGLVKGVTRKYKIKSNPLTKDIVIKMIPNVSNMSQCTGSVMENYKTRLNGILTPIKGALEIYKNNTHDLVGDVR
# UniProt Q9IH63, 110-546 limits assumed: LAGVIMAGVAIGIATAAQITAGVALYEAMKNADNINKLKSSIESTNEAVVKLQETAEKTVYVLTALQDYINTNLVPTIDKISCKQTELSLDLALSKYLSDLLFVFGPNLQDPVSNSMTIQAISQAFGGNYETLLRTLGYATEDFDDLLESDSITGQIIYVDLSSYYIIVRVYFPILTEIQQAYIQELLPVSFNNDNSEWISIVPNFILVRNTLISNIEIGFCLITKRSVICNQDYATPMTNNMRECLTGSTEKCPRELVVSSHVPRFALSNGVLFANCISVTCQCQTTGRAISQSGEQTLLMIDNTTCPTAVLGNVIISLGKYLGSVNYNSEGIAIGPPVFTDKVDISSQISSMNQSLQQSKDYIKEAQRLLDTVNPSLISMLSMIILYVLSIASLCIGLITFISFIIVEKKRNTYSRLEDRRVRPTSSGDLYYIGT
# Assay: cell-based
# Conditions: IC50, fusion assay
compound,measurement,setting,value
CC[C@H](C)[C@H](NC(=O)[C@H](CO)NC(=O)[C@H](CC(=O)O)NC(=O)[C@H](CC(C)C)NC(=O)[C@@H](NC(=O)[C@H](CCCCN)NC(=O)[C@H](CC(N)=O)NC(=O)[C@H](CO)NC(=O)[C@H](CCCNC(=N)N)NC(=O)[C@H](CCCNC(=N)N)NC(=O)[C@@H](NC(=O)[C@H](Cc1c[nH]c2ccccc12)NC(=O)[C@H](CCC(=O)O)NC(=O)[C@H](CCCCN)NC(=O)[C@H](CO)NC(=O)[C@H](CCC(=O)O)NC(=O)[C@H](CCC(=O)O)NC(=O)[C@H](CC(C)C)NC(=O)[C@H](CC(=O)O)NC(=O)[C@H](CO)NC(=O)[C@H](CCCCN)NC(=O)[C@@H](NC(=O)[C@H](CCCCN)NC(=O)[C@H](CC(N)=O)NC(=O)[C@H](CC(C)C)NC(=O)[C@@H](NC(=O)[C@@H](NC(=O)[C@H](CO)NC(=O)[C@@H](NC(=O)[C@H](CC(=O)O)NC(=O)[C@@H](NC(=O)[C@@H]1CCCN1C(=O)[C@H](CC(=O)O)NC(=O)[C@H](CC(C)C)NC(=O)[C@H](C)NC(=O)[C@@H](NC(C)=O)C(C)C)[C@@H](C)CC)[C@@H](C)CC)[C@@H](C)CC)C(C)C)[C@@H](C)CC)[C@@H](C)CC)[C@@H](C)CC)C(=O)NCC(=O)N[C@@H](CO)C(=O)NCC(=O)N[C@@H](CO)C(=O)NCC(=O)NC(CSCC(=O)NCCOCCOCCOCCOCCC(=O)O[C@H]1CC[C@@]2(C)C(=CC[C@H]3[C@@H]4CC[C@H]([C@H](C)CCCC(C)C)[C@@]4(C)CC[C@@H]32)C1)C(N)=O (some centres unmarked) [VIKI-chol-PEG4],IC50,after nebulization,4.5 nM
same,IC50,before nebulization,3.97 nM

# Reference: publication PMC12212376 (Antiviral research, 2025)
